These results are taken from patent publication US6696494B2, “α-hydroxyarylbutanamine inhibitors of aspartyl protease” (Enanta Pharmaceuticals, Inc., priority 2001, dated 2004).

For orientation: IC50 means the concentration that inhibits the measured activity by half.

In this assay the target is HIV-1 protease (Human immunodeficiency virus type 1 group M subtype B, UniProt P04585). The assay is described as follows: Inhibition of microbial expressed viral protease (HIV-1 protease), method of Toth and Marshall. The class given is biochemical. The conditions noted are these: read-out: IC50 in μM. As to the method:
Biological Assay for Inhibition of Microbial Expressed Viral Protease
The inhibition constants against HIV-1 protease were measured using the method described by M. V. Toth and G. R. Marshall, Int. J. Peptide protein Res., 1990, 544. The method described M. W. Pennington et al., Peptides 1990, Gimet, E. and D. Andrew, Eds., Escom; Leiden, Netherlands (1990) may also be used. The potency is measured as IC50in μM. The person of skill would accept these tests as predictive of the compounds' utility in vivo to treat HIV infected patients.

The structures appear in SMILES notation. Where two headings read alike, the source gives them in different places. A value given as a limit tells only on which side of the number the result lay.

In the case of `CC(C)(C)NC(=O)c1cc([N+](=O)[O-])ccc1/C=C/[C@@H](O)[C@H](Cc1ccccc1)NC(=O)OC(C)(C)C`, where the note is “Table 2”, the IC50 was in the range of 0.1 to 10 µM.

As for `CC(C)(C)OC(=O)N[C@@H](Cc1ccccc1)[C@H](O)CCc1ccccc1C(=O)N[C@@H](CO)c1ccccc1`, the IC50 (Table 1) fell in the range of 0.1 to 10 µM. On the same count and under the same terms, for `Cc1cc(C)c(OCC(=O)N[C@@H](Cc2ccccc2)[C@H](O)CCc2ccccc2C(=O)NC(C)(C)C)c(C)c1` the value was < 0.1 µM. As for `Cc1cccc(C(=O)NC(C)(C)C)c1/C=C/[C@@H](O)[C@H](Cc1ccccc1)NC(=O)COc1c(C)cccc1C`, the IC50 (Table 2) is < 0.1 µM.

`CC(C)(C)NC(=O)c1ccccc1CC[C@@H](O)[C@H](Cc1ccccc1)NC(=O)c1cccc(Cl)c1Cl`: for the setting “Table 1”, the IC50 is < 0.1 µM. With `CC(C)(C)NC(=O)c1cc(O)ccc1CC[C@@H](O)[C@H](Cc1ccccc1)NC(=O)OC(C)(C)C`, the IC50 (Table 1) is > 10 µM. Same read-out and setting: as for `CCOC(=O)N[C@@H](Cc1ccccc1)[C@H](O)CCc1ccccc1C(=O)NC(C)(C)C`, the figure is < 0.1 µM. As for `Cc1cccc(C)c1OCC(=O)N[C@@H](Cc1ccccc1)[C@H](O)/C=C/c1cccc(C)c1C(=O)NC(C)(C)C`, the IC50 (Table 2) was < 0.1 µM. Turning to `CC(C)(C)NC(=O)c1ccccc1CC[C@@H](O)[C@H](Cc1ccccc1)NC(=O)c1c(Cl)cccc1Cl`, for the setting “Table 1”, the IC50 is < 0.1 µM. With `Cc1cccc(C)c1OCC(=O)N[C@@H](Cc1ccccc1)[C@H](O)/C=C/c1cccc(F)c1C(=O)NC(C)(C)C`, the IC50 (Table 2) lay within 0.1 to 10 µM.
